Results of unrelated studies side by side (data: NIAID ChemDB).

Common to all: tests in culture; agent: Mycobacterium tuberculosis

ECn: concentration that inhibits the pathogen or its effect by n%.

compound,mutations,strain,cells,read by,read-out,setting,dose,result
Clc1cc(N2CCOCC2)nc2nc(N3CCCCC3)ccc12,-,H37Rv,-,BACTEC,inhibition,-,6.25 µg/mL,27%
NNC(=O)CCC(NC(=O)OCc1ccccc1)C(=O)NN,-,H37Rv,VERO,BACTEC,MIC,-,-,12.5 µg/mL
CCOC(=O)Nc1cc(N(CCc2ccccc2)Cc2ccccc2)c2nc(C)oc2c1,-,H37Rv,-,-,EC50,-,-,<12.5 µg/mL
C[C@@H]1CN(c2c(F)c(N)c3c(=O)c(C(=O)O)cn(C4CC4)c3c2F)C[C@H](C)N1,-,19 strains,-,-,MIC90,-,-,>0.25 µg/mL
CO[C@H]1/C=C/O[C@@]2(C)Oc3c(C)c(O)c4c(O)c(c(N5CCN(Cc6c(C)cc(C)cc6C)CC5)c(O)c4c3C2=O)NC(=O)/C(C)=C\C=C\[C@H](C)[C@H](O)[C@@H](C)[C@@H](O)[C@@H](C)[C@H](OC(C)=O)[C@@H]1C,-,H37Rv,-,-,MBC,-,-,0.5 µg/mL
Cc1c(C(=O)NC(C)(C)C)[n+](=O)c2cc(Cl)c(Cl)cc2n1[O-],-,H37Rv,VERO,-,MIC,-,-,1.56 µg/mL
CCOc1ccc2ccc3ccc(OCC)nc3c2n1,-,H37Rv,-,-,MIC bound,-,-,>6.25 µg/mL
CN1c2ccccc2CCC1CCc1ccc2c(c1)OCO2,-,MT3,-,-,MIC,-,-,>100 µg/mL
CN1CCN(C(=O)N2c3ccccc3Sc3ccccc32)CC1,-,H37Rv,-,BACTEC,inhibition,-,12.5 µg/mL,8%
O=C(NCc1ccccc1)c1cc(C2C3CC4CC(C3)CC2C4)c2ccccc2n1,-,H37Ra,-,BACTEC,inhibition,-,6.25 µg/mL,99%
C(/C=C/c1ccccc1)=Nc1ccc(Cn2ccnc2)cc1,-,B905,-,-,MIC,-,-,32 µg/mL
Nc1ccc2c(Cl)cc(N3CCCCC3)nc2n1,-,H37Rv,-,BACTEC,EC50,-,-,>6.25 µg/mL
NNC(=O)c1cc(C2CCCC2)c2ccccc2n1,-,H37Ra,-,BACTEC,inhibition,-,6.25 µg/mL,0%
O=C1NC(=NCc2ccccc2)N/C1=C\c1ccc(Cl)cc1,-,H37Rv,VERO,resazurin,inhibition,-,12.5 µg/mL,97%
COc1ccc(N2CCN(C(=O)c3c(C)n([O-])c4ccccc4[n+]3=O)CC2)cc1,-,H37Rv,-,-,inhibition,-,6.25 µg/mL,0%
CCCCCOc1c(C(C)=O)cc(N)c2nccc(CC)c12,-,H37Rv,-,-,MIC,-,-,6.25 µg/mL
CCOC(=O)Nc1cc(Nc2ccc(Cl)cc2)c2ncc(-c3ccc(Cl)cc3)nc2n1,-,H37Rv,-,-,EC50,-,-,>12.5 µg/mL
C(=C\c1ccccc1)/CNc1ccc(CN2CCOCC2)cc1,-,B905,-,-,MIC,-,-,>64 µg/mL
NC(=O)c1cnccn1,-,W296,-,-,MIC,-,-,>900 µg/mL
Cc1cc2nc3c(=O)[nH]c(=O)nc-3n(CCOC(=O)CCC(=O)O)c2cc1C,-,H37Rv,-,BACTEC,inhibition,-,12.5 µg/mL,1%
Cc1ccccc1NC(=O)c1c(C)n([O-])c2ccc(Cl)cc2[n+]1=O,-,H37Rv,VERO,-,MIC,-,-,6.25 µg/mL
CCCCC(=O)N/N=C/c1ccc(O)cc1O,-,H37Rv,-,BACTEC,MIC,-,-,≥12.5 µg/mL
O=C(CSc1nnc(-c2ccccn2)s1)N/N=c1/scc(-c2cccc(Cl)c2)n1-c1ccccc1,-,Clinical isolate 331,-,-,MIC,-,-,>80 µg/mL
Cc1c(C(=O)Nc2ccccc2)[n+](=O)c2cc(Cl)ccc2n1[O-],-,H37Rv,VERO,-,inhibition,-,6.25 µg/mL,99%
COc1ccc(/C=C2\N=C(c3ccccc3)N(Nc3nnc(NN4C(=O)/C(=C\c5ccc(OC)cc5)N=C4c4ccccc4)c4ccccc34)C2=O)cc1,-,H37Rv,-,BACTEC,MIC bound,-,-,≤12.5 µg/mL
O=C(N/N=C/c1ccc[nH]1)c1ccc(F)cc1,-,H37Rv,-,-,EC50,-,-,>6.25 µg/mL
CC(=O)Nc1ccc(/C=N/NC(N)=S)cc1,-,Isolate A drug-susceptible,-,-,MBC,-,-,30 µg/mL
O=C(CSc1nnc(-c2ccccn2)s1)N/N=c1/scc(-c2ccccc2)n1-c1ccccc1,-,H37Rv,-,-,MIC,-,-,>80 µg/mL
COc1cc(C=C(c2ccc(N(C)C)cc2)c2ccc(N(C)C)cc2)c2ccccc2c1OC,-,H37Rv,-,resazurin,MIC bound,-,-,>6.25 µg/mL
Cc1c(C(=O)Nc2ccccc2)[n+](=O)c2cc(Cl)c(Cl)cc2n1[O-],-,H37Rv,VERO,-,inhibition,-,6.25 µg/mL,100%
c1cc2c(N3CCOCC3)cc(N3CCOCC3)nc2nc1N1CCOCC1,-,H37Rv,-,BACTEC,inhibition,-,6.25 µg/mL,11%
C=CCSc1nc2ccccc2c(=O)n1Cc1ccco1,-,H37Rv,-,BACTEC,inhibition,-,12.5 µg/mL,0%
COc1ccc2c(c1)[n+](=O)c(C(=O)N1CCN(c3ccc([N+](=O)[O-])cc3)CC1)c(C)n2[O-],-,H37Rv,-,-,inhibition,-,6.25 µg/mL,0%
Cc1ccccc1-n1c(-c2ccccc2)cs/c1=N/NC(=O)CSc1nnc(-c2ccccn2)s1,-,Clinical isolate 190,-,-,MIC,-,-,20 µg/mL
Nc1ccc(C(=O)Nc2ccc(N=Nc3ccc(S(=O)(=O)O)cc3)cc2)cc1,-,H37Rv,-,BACTEC,inhibition,-,12.5 µg/mL,0%
O=C(CSc1nnc(-c2ccccn2)s1)N/N=c1/scc(-c2cccc([N+](=O)[O-])c2)n1-c1ccccc1,-,Clinical isolate 190,-,-,MIC,-,-,>80 µg/mL
Cc1ccc2c(O)c(Cc3ccccc3)c(=O)[nH]c2n1,-,H37Rv,-,BACTEC,EC50,-,-,>6.25 µg/mL
CO[C@H]1/C=C/O[C@@]2(C)Oc3c(C)c(O)c4c(O)c(c5c(c4c3C2=O)NC2(CCN(CC(C)C)CC2)N=5)=NC(=O)/C(C)=C\C=C\[C@H](C)[C@H](O)[C@@H](C)[C@@H](O)[C@@H](C)[C@H](OC(C)=O)[C@@H]1C,-,2237 (rifampicin-susceptible),-,-,MBC,-,-,0.125 µg/mL
O=C(CSc1nnc(-c2ccccn2)s1)N/N=c1/scc(-c2ccccc2Cl)n1-c1ccccc1,-,H37Rv,-,-,MIC,-,-,>80 µg/mL
CCOC(=O)Nc1cc2ncc(CNc3ccc(C(=O)OCC)cc3)nc2c(N)n1,-,H37Rv,-,-,inhibition,-,12.5 µg/mL,0%
CC1(C)CC(N=c2cc3n(-c4ccc(Cl)cc4Cl)c4ccccc4nc-3cc2Nc2ccc(Cl)cc2Cl)CC(C)(C)N1,-,H37Rv,Macrophages,-,MIC,inside macrophages,-,0.03 µg/mL
O=C(N/N=C/c1cccs1)c1ccc([N+](=O)[O-])cc1,-,H37Rv,-,-,EC50,-,-,>6.25 µg/mL
CCOC(=O)C/C(O)=C(/N=Nc1nc[nH]c1C(N)=O)C(=O)OCC,-,H37Rv,-,resazurin,inhibition,-,6.25 µg/mL,6%
Cc1ccc(-c2cs/c(=N/NC(=O)CSc3nnc(-c4ccccn4)s3)n2-c2ccccc2)cc1,-,Clinical isolate 331,-,-,MIC,-,-,40 µg/mL
COc1cc(/C=C2\Oc3c(OC)cccc3C2=O)ccc1O,-,H37Rv,-,BACTEC,inhibition,-,12.5 µg/mL,40%
NCC[C@H](O)C(=O)N[C@@H]1C[C@H](N)[C@@H](O[C@H]2O[C@H](CN)[C@@H](O)[C@H](O)[C@H]2O)[C@H](O)[C@H]1O[C@H]1O[C@H](CO)[C@@H](O)[C@H](N)[C@H]1O,-,MDR15,-,broth dilution / resazurin,MIC,-,-,4 µg/mL
C[CH2][Sn]1([CH2]C)[O]C2C(OC)OC3COC(c4ccccc4)OC3C2[O]1,-,H37Rv,-,BACTEC,inhibition,-,12.5 µg/mL,44%
O=C(Nc1ccc([N+](=O)[O-])cc1)c1cc(C2C3CC4CC(C3)CC2C4)c2ccccc2n1,-,H37Ra,-,BACTEC,inhibition,-,6.25 µg/mL,43%
C(=C\c1ccccc1)/CNc1ccc(Cn2ccnc2)cc1,-,B814,-,-,MIC,-,-,4 µg/mL
COC(=O)c1cc(=O)nc2n1[C@H]1O[C@@H](CO)[C@H](O)[C@@H]1O2,-,H37Rv,-,resazurin,inhibition,-,6.25 µg/mL,-113%
CCOC(=O)Nc1cc2c(c(N)n1)N=C(c1ccc([N+](=O)[O-])cc1)CO2,-,H37Rv,-,-,EC50,-,-,>12.5 µg/mL
O=C1OC2(CCCC2)OC(=O)C1=C/C=C/c1ccc([N+](=O)[O-])o1,-,H37Rv,-,BACTEC,inhibition,-,12.5 µg/mL,-21%
CCCNC(=O)c1cc(C2C3CC4CC(C3)CC2C4)c2ccccc2n1,-,H37Ra,-,BACTEC,inhibition,-,6.25 µg/mL,3%
CCCCCCCOc1c(C(C)=O)cc([N+](=O)[O-])c2nccc(CC)c12,-,H37Rv,-,-,inhibition,-,6.25 µg/mL,99%
CCOC(=O)Nc1cc(NC(c2ccccc2)c2ccccc2)c(N=Cc2ccc(Cl)cc2Cl)c(N)n1,-,H37Rv,-,-,EC50,-,-,>12.5 µg/mL
N[C@@H]1CN(c2c(F)cc3c(=O)c(C(=O)O)cn([C@@H]4C[C@@H]4F)c3c2Cl)CC12CC2,Gyrase Asp94Asn,Clinical strain,-,resazurin,MIC,-,-,0.25–0.5 µg/mL
COc1c(C(C)=O)cc([N+](=O)[O-])c2ncccc12,-,H37Rv,-,-,inhibition,-,6.25 µg/mL,0%
O=C(N/N=C/c1ccco1)c1ccc(F)cc1,-,H37Rv,-,-,MIC,-,-,>6.25 µg/mL
CCc1ccnc2c([N+](=O)[O-])cc(C(C)=O)c(OC(C)C)c12,-,H37Rv,-,-,inhibition,-,6.25 µg/mL,97%
CN1CCN(C(=S)S)CC1,-,H37Rv,VERO,-,MIC,-,-,>6.25 µg/mL
O=C(CSc1nnc(-c2ccccn2)s1)N/N=c1/scc(-c2ccccc2)n1-c1cccc(Cl)c1,-,Clinical isolate 180,-,-,MIC,-,-,80 µg/mL
CCCOc1c(C(C)=O)cc(N)c2nccc(CC)c12,-,H37Rv,-,-,inhibition,-,6.25 µg/mL,0%
O=C(CSc1nnc(-c2ccccn2)s1)N/N=c1/scc(-c2ccc(Cl)cc2)n1-c1ccccc1,-,Clinical isolate 190,-,-,MIC,-,-,40 µg/mL
CN(C)c1ccc(/C=C/C/C=N/NC(=O)c2ccc(F)cc2)cc1,-,H37Rv,-,-,MIC,-,-,>6.25 µg/mL
O=C1NC(NNC(=O)c2ccncc2)=N/C1=C\c1ccc(Cl)cc1,-,Erdman,-,-,MIC,-,-,12.5 µg/mL
CCc1ccc([C@H]2C[C@@H](C(F)(F)F)n3ncc(C(=O)NCc4ccc(OC)cc4)c3N2)cc1,MmpL3: Phe644Cys,H37Rv,-,fluorescence,fold resistance,-,-,>8
O=C1NC(NNC(=O)c2ccncc2)=N/C1=C\c1c(Cl)cccc1Cl,-,H37Rv,-,resazurin,EC50,-,-,>12.5 µg/mL
O=C(Nc1ccccc1)c1cc(C2C3CC4CC(C3)CC2C4)c2ccccc2n1,-,H37Ra,-,BACTEC,inhibition,-,6.25 µg/mL,99%
CCN(CC)CC(=O)Nc1c(C)cc(C(=O)NN)cc1C,-,H37Rv,-,BACTEC,inhibition,-,12.5 µg/mL,4%
CC1(C)CC(N=c2cc3n(-c4cc(Cl)cc(Cl)c4)c4ccccc4nc-3cc2Nc2cc(Cl)cc(Cl)c2)CC(C)(C)N1,-,TBRP321 (INH RMP-resistant),-,-,MIC,-,-,0.03 µg/mL
Cc1ccc2c(c1)[n+](=O)c(C(=O)Nc1ccccc1C)c(C)n2[O-],-,H37Rv,-,-,MIC,-,-,>6.25 µg/mL
CC1=C(C)C(=O)O[C@H]([C@](C)(O)[C@]2(O)CC[C@@]3(O)[C@@H]4C[C@H](Cl)[C@]5(O)[C@@H](O)C=CC(=O)[C@]5(C)[C@H]4CC[C@]23C)C1,-,H37Rv,-,BACTEC,inhibition,-,12.5 µg/mL,21%
Cc1c(C(=O)N2CCN(c3ccc(Cl)cc3)CC2)[n+](=O)c2ccccc2n1[O-],-,H37Rv,-,-,inhibition,-,6.25 µg/mL,0%
CN1CCN(Cc2ccc(NC/C=C/c3ccccc3)cc2)CC1,-,B905,-,-,MIC,-,-,>64 µg/mL
COc1ccc(CCC2CCc3ccccc3N2C)cc1OC,-,MT4,-,-,MIC,-,-,>322 µg/mL
CC(C)=CCC1=C(O)[C@@](O)(CC=C(C)C)C(=O)C(C(=O)CC(C)C)=C1O,-,H37Rv,-,BACTEC,MIC bound,-,-,>12.8 µg/mL
O=C1NC(NNC(=O)c2ccncc2)=N/C1=C\c1ccccc1Cl,-,ATCC 35822 (isoniazid-resistant),-,-,MIC,-,-,50 µg/mL
CCC/C(=N\O)S(=O)(=O)c1ccc(NN=O)nc1,-,H37Rv,-,BACTEC,MIC bound,-,-,>12.5 µg/mL
NC[C@@H]1O[C@H](O[C@H]2[C@@H](O)[C@H](O[C@@H]3[C@@H](O)[C@H](N)C[C@H](N)[C@H]3O[C@H]3O[C@H](CO)[C@@H](O)C[C@H]3N)O[C@@H]2CO)[C@H](N)[C@@H](O)[C@@H]1O[C@H]1O[C@H](CO)[C@@H](O)[C@H](O)[C@@H]1O,-,Aoyama B (ethionamide-resistant),-,-,EC50,-,-,25–50 µg/mL
Nc1nc(N)c(N=Nc2cccc([N+](=O)[O-])c2)c(=O)[nH]1,-,H37Rv,-,BACTEC,MIC bound,-,-,>12.5 µg/mL
NNC(=O)Cc1cc(C2CCCC2)nc2c(C3CCCC3)cccc12,-,H37Ra,-,BACTEC,inhibition,-,6.25 µg/mL,67%

MIC bound comes from a single tested concentration. Two numbers with a dash give a range or band. Lines come from different laboratories, so protocols vary. An empty or dashed field is not shown. MIC50, MIC90 and the like: level of inhibition, or share of isolates inhibited. Inhibition is in % at the dose shown (toxicity tests: loss of growth or viability). Fold resistance has wild type as its base.